The target in assay [1] is Cross-linked His-CAhex: disulfide-stabilized hexamer of 6-His-CA(A14C/E45C/W184A/M185A) (HIV-1). Description: SPR; Reichert 4-SPR; cross-linked His-CAhex immobilised on an NTA chip via the C-terminal His-tag; peptides 3.9 μM to 2 mM; 0.01 M HEPES pH 7.4, 0.15 M NaCl, 0.05% v/v Surfactant P20; simple kinetic model. (In general: In SPR one partner is held on a chip, and binding of the other changes the refractive index at the surface.)

In assay [2] the target is cross-linked His-CAhex, 6-His-CA(A14C/E45C/W184A/M185A) (HIV-1). Nature of the assay: SPR; Reichert 4-SPR; cross-linked His-CAhex immobilised on an NTA chip via the C-terminal His-tag; peptides 3.9 µM to 2 mM; 0.01 M HEPES pH 7.4, 0.15 M NaCl, 0.05% Surfactant P20; Scrubber 2.0, simple kinetic model.

In paper PMC9537594 one finds Kd data, which are given here for 2 substances.

pKd: −log10 of the molar value.

In the case of “CPSF6_(313-327) 15-mer FG peptide (from UniProt Q16630-2 313-327)”, the pKd (commonly the negative decadic logarithm of the Kd, by convention in mol/L) in assay [1] is 4.15.

Regarding CPSF6313-327 peptide, in assay [2], the pKd is 4.15.
